# Tested on: CO[C@H]1/C=C/O[C@@]2(C)Oc3c(C)c(O)c4c(O)c(c(/C=N/N5CCN(C)CC5)c(O)c4c3C2=O)NC(=O)/C(C)=C\C=C\[C@H](C)[C@H](O)[C@@H](C)[C@@H](O)[C@@H](C)[C@H](OC(C)=O)[C@@H]1C
# Assay: purified protein
# Details: ATP at five times its Km, 50 mM Hepes pH 7.5, 5 mM MgCl2, 40 mM NH4Cl, 25 °C, 11.3 μM enzyme
Substance,Km [µM],kcat [s⁻¹],kcat/Km [M⁻¹ s⁻¹]
RPH-Lm (rifampin phosphotransferase) (Listeria monocytogenes serotype 4b str. F2365; E297A),4.76 ± 1.26,45,9.43e+06
RPH-Lm (rifampin phosphotransferase) (Listeria monocytogenes serotype 4b str. F2365; Q337A),6 ± 2,15.4,2.7e+06
RPH-Lm (rifampin phosphotransferase) (Listeria monocytogenes serotype 4b str. F2365; V368E),4.56 ± 1.78,45.7,9.8e+06
RPH-Lm (rifampin phosphotransferase) (Listeria monocytogenes serotype 4b str. F2365; V368T),3.65 ± 1.09,30,8.22e+06
RPH-Lm (rifampin phosphotransferase) (Listeria monocytogenes serotype 4b str. F2365; Y351F),4.08 ± 1.55,15.9,3.89e+06

# Tested on: Nc1ncnc2c1ncn2[C@@H]1O[C@H](COP(=O)(O)OP(=O)(O)OP(=O)(O)O)[C@@H](O)[C@H]1O
# Assay: purified protein
# Details: RIF at five times its Km, 50 mM Hepes pH 7.5, 5 mM MgCl2, 40 mM NH4Cl, 25 °C, 11.3 μM enzyme
Substance,Km [µM],kcat [s⁻¹],kcat/Km [M⁻¹ s⁻¹]
RPH-Lm (rifampin phosphotransferase) (Listeria monocytogenes serotype 4b str. F2365; E297A),49.49 ± 6.85,43.2,873000
RPH-Lm (rifampin phosphotransferase) (Listeria monocytogenes serotype 4b str. F2365; E667A),24.65 ± 5.19,1.78,72000
RPH-Lm (rifampin phosphotransferase) (Listeria monocytogenes serotype 4b str. F2365; R117A),56.12 ± 8.36,2.39,43000
RPH-Lm (rifampin phosphotransferase) (Listeria monocytogenes serotype 4b str. F2365; R666A),169.29 ± 43.68,2.71,16000
RPH-Lm (rifampin phosphotransferase) (Listeria monocytogenes serotype 4b str. F2365; T136V),53.88 ± 6.54,2.1,39500

# Reference: publication PMC4844700, “Rifampin phosphotransferase is an unusual antibiotic resistance kinase” (Nature Communications, 2016)
